# Assay results published in the supplement of paper PMC9931576.
# Human monoclonal antibodies against the spike receptor-binding domain (heavy:light variable regions). IC50 against pseudoviruses bearing the spike of naturally observed variants; lower = stronger; >10 µg/ml means not reached at the top dose. No active / inactive call. The stated detection limit is 0.0005 µg/ml; values near or below 0.001 µg/ml lie at the floor of the assay.
# Legend:
# Assay in all cases: pseudovirus neutralization IC50; higher = weaker neutralization
# [1] = molecular target: SARS-CoV-2 Omicron BA.1 spike pseudovirus
# Experimental: (§1)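 Single-round VSV luciferase pseudovirus mixed with antibody dilutions for 1 h and put on Huh-7 cells for about a day; IC50 from the dose curve.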
# [2] = molecular target: SARS-CoV-2 Omicron BA.2 spike pseudovirus
# Experimental: as §1
# [3] = molecular target: SARS-CoV-2 Omicron BA.2.75 spike pseudovirus
# Experimental: as §1
# [4] = molecular target: SARS-CoV-2 Omicron BA.5 spike pseudovirus
# Experimental: as §1
# [5] = molecular target: SARS-CoV-2 Omicron BQ.1.1 spike pseudovirus
# Experimental: as §1
# [6] = molecular target: SARS-CoV-2 Omicron XBB spike pseudovirus
# Experimental: as §1
# [7] = molecular target: SARS-CoV-2 early D614G spike pseudovirus
# Experimental: as §1
Binder,pseudovirus neutralization IC50 [1] [µg/mL],pseudovirus neutralization IC50 [2] [µg/mL],pseudovirus neutralization IC50 [3] [µg/mL],pseudovirus neutralization IC50 [4] [µg/mL],pseudovirus neutralization IC50 [5] [µg/mL],pseudovirus neutralization IC50 [6] [µg/mL],pseudovirus neutralization IC50 [7] [µg/mL]
BD56-1711 (protein) chain 1: QVQLVQSGAEVKKPGSSVKVSCKASGGTFTSYTINWVRQAPGQGLEWMGSIIPILGITNYAQKFQGRVTITADKTTSTASMELSTLRSDDTAVYYCARGRGYSGYGAAMYCDYWGQGTLVTVSS chain 2: QSVLTQPPSVSGAPGQRVTISCTGTNSNIGAGYDVHWYQQLPGTAPKLLIYGNTNRPSGVPDRFSGSKSGTSASLAITGLQAEDEADYYCQSYDSGLSAALVFGTGTQVTVL,0.0208,0.0157,0.0468,2.22,> 10,1.59,0.0443
COV2-2677 (protein) chain 1: QLQLQESGPGLVKPSETLSLTCTVSGGSISSSSYYWGWIRQPPGKGLEWIGSMYYSGSTYYNPSLKSRVTISVDTSKNQFSLKLSSVTAADTAVYYCARLLWLRGHFDYWGQGTLVTVSS chain 2: NFMLTQPHSVSESPGKTVTISCTGSSGSIASNYVQWYQQRPGSAPTTVIYEDNQRPSGVPDRFSGSIDSSSNSASLTISGLKTEDEADYYCQSYDSSNYWVFGGGTKLTVL,> 10,> 10,> 10,> 10,> 10,> 10,> 10
BD56-1728 (protein) chain 1: QVQLVQSGAEGKKPGSSVKVSCKASGDTFRSYAISWVRQAPGQGLEWMGKIIPPLGVANYAQRFQGRVTITADRSTHTAYMELSRLRSEDTAIYFCARDESRSCSSTTCFDYWGQGTLVTVSS chain 2: QSVLTQPPSVSGAPGQRVTISCTGDNSNIGAGYDIHWYQWLPGTAPKLLIYNNNIRPSGVPDRFSGSKSGTSASLAIAGLQAEDEADYFCQSYDSSLSDVVFGGGTKLTVL,0.0423,0.0836,0.147,> 10,> 10,> 10,0.123
BD56-1709 (protein) chain 1: EVQLVESGGRLVQPGRSLRLSCAASGFTFEDYAMHWVRQAPGKGLEWVSGISWNGGVIGYADSVKGRLIISRDNAKNSLHLHMQSLKTEDTAFYYCAKDMGDYGDLFHYTMDVWGQGTTVTVSS chain 2: QSALTQPASVSGSPGQSITISCTGTDSDVGGYNYVSWFQHRPGKAPQLMIYDVSKRPSGVSNRFSASKSGNTASLTISGLQAEDEADYYCSSYTSTSTVLFGGGTKLTVL,0.0385,0.0161,0.0498,1.57,> 10,> 10,0.0277
BD56-1722 (protein) chain 1: QVQLVQSGAEVKKPGSSVKVSCRASGGTFSSYTLSWVRQAPGQGLEWMGRILPILGIATYVHKFQGRVTITADKSTSTAYMELSSLRSEDTAVYYCAREDCISTTCHGPKWFDPWGQGTLVTVSS chain 2: QSVLTQPPSVSGAPGQRVTISCTGTNSNIGAGYDVHWYQQLPGTAPKLLIFVYSNRPSGVPDRFSGSKSGTSASLAITGLQAEDEADYYCQSYDSSLSEDVFGTGTKVTVL,0.0174,0.00959,0.0321,1.2,> 10,1.33,0.0207
COV2-2103 (protein) chain 1: EVQLVESGGGLVQPGGSLRLSCAASGFTFSRHWMTWVRQAPGKGLEWVANIKQDGSEKYYVDSVKGRLTISRDNAKNSLYLQMNSLRAEDTAVYYCARLGFYYGGADYWGQGTLVTVSS chain 2: NFMLTQPHSVSESPGKTVTISCTGSSGSIASNYVQWYQQRPGSAPTTVISEDNQRPSGVPDRFSGSIDSSSNSASLTISGLKTEDEADYYCQSYDGINRAWVFGGGTKLTVL,> 10,> 10,> 10,> 10,> 10,> 10,0.584
BD56-1713 (protein) chain 1: EVQLVESGGGLAQPGGSLRLSCAASGFTFSRYDMHWVRQSTAKGLEWVSAIGTTGDTYYLDSVKGRFTISRENAKNSLYLQMNSLRVGDTAVYYCARVPIYDSQTYYEARDSWYFDLWGRGTLVTVSS chain 2: DIQMTQSPSSLSASVGDRVTITCRASQTIRTYLNWYQQKPGKAPKLLIYAASSLQTGVPSRFSGSGSGTDFTLTITSLQPEDFATYYCQQSYVMPPITFGQGTKVEIK,> 10,> 10,> 10,> 10,> 10,> 10,> 10
BD56-1719 (protein) chain 1: EVQLVESGGGLVQPGRSLRLSCAASGFSFDDNGMHWVRQAPGKGLEWVSGINWNSDSVAYADSVKGRFTISRDNAKNSLFLQMNSLRPDDTAWYYCVKDSRAGFGDYFDFWGQGTLVTVSS chain 2: SYVLTQPPSVSVAPGKTARITCGGNNIGSKSVHWYRQKPGQAPVLVISYDTDRPSGIPERFSGSNSGNTATLTISRVEAGDEADYYCQVWGGSSDHPYVFGTGTKVTVL,> 10,> 10,> 10,> 10,> 10,> 10,> 10
BD56-1723 (protein) chain 1: EVQLVESGGALVQAGGSLRLSCGASGYIFSSYWMTWVRQAPGKGLEWVANIKQDGSGMYYADSVKGRFTISRDNAKNSLFLQMNSLRVEDTAVYYCARDPVDGYIDSWGRGTLVTVSS chain 2: EIVMTQSPATLSVSPGERVTLSCRASQYISSSLAWYQQKPGQAPRLLISGASTRAATIPARFSGGGSGTEFTLTISSLQSEDFAVYYCQQYYSWPPWTFGQGTKVEIK,> 10,> 10,> 10,> 10,> 10,> 10,> 10
BD56-1750 (protein) chain 1: EVQLVASGGGLVQPGGSLRLSCAASGFTFSSYDMHWVRQATGKGLEWVSVIGTAGDTYYEDSVKGRFTISREDAKNALSLQMNSLRAGDTAVYYCTRGTFDSGNFVSWFDPWGQGTLVTVSS chain 2: DIQMTQSPSSLSASVGDRVTISCRASQSIRNYLNWYQQKPGKAPKLLIYSASNLQSGVPSRFSGVGSGTDFTLTIRSLQPEDIATYYCQQSYNIPPWTFGQGTKVEIK,> 10,> 10,> 10,> 10,> 10,> 10,> 10
BD56-1726 (protein) chain 1: EVQLVESGGDLVQPGGSLRLSCSASGFTFSNYAMYWVRQAPGKRLEYVSAISSDGGSTYYSDSVKGRFTISRDNSKNTLYLQMSSLRTEDTAVYYCVKDLGDILTVDVFDIWGQGTMVTVAS chain 2: DIQMTQSPSSLSASVGDRVTITCRASQIISRYLNWYQQKPGKAPKLLIYTASSLQSGVPSRFSGSGSGTEFTLTISSLQPEDFATYYCQQSYSTPGTFGQGTKVEIK,> 10,> 10,> 10,> 10,> 10,> 10,> 10
BD56-1725 (protein) chain 1: QVQLVQSGAEVKKPGSSVKVSCEASGGTFSSYTFSWVRQAPGQGLEWMGRIIPILGIANYAQNFQGRVTITADKSTSTAYVELSSLRSEDTAIYYCARDIGYSGSGSNWYFDLWGRGTLVTVSS chain 2: QSVLTQPPSVSGAPGQRVTISCTGSSSNIGAGYDVHWYQQLPGTAPKLLIYINQNRPSGVPDRFSGSKSGTSASLAITGLQADDEADYYCQSYDSSLSGSVFGGGTKLTVL,0.0388,0.014,0.0492,6.91,> 10,3.81,0.135
